Among the data in PubChem BioAssay AID504582 (Broad Institute, 2011) are growth rescue values, retold here.

Structures are written as SMILES. Only a part is listed here, and it is no random draw. Calls of active or inactive are those of the source. No stated cut-off is given here; in the data, active means growth rescue above about 28% (passing the limit was not always enough); inconclusive means no clear call, values can overlap the other calls.

The nature of this assay: rescue of yeast from PfHsp40 toxicity, primary screen, S. cerevisiae, ATP luminescence (AID 504582).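 Further: yeast W303a lacking pdr1 and pdr3 grown in galactose medium; growth measured after three days at 30 °C.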 To be noted: S. cerevisiae expressing PfHsp40, growth rescue, at 12.5 µM, active compounds read high.
Take `CN1CCC(Nc2ccc(F)c(Cl)c2)CC1`: the growth rescue is inactive: -1.45%.

With `CCOc1ncccc1C(=O)NCC1(N2CCOCC2)CCCCC1`, the growth rescue is inactive: -0.672%.

With `CCCOc1ccc(C(=O)NCC2(N(C)C)CCCCC2)cc1`, the growth rescue is inactive: -0.748%.

As for `O=C(O)C1(Nc2ccccc2)CCN(Cc2ccccc2)CC1`, the growth rescue was inactive: 0.056%. For `CC(C)(C)OC(=O)N1CCC(Nc2ccccc2)CC1` the value was inactive: -0.022%; for `CCC(CO)(C(=O)OC1CN2CCC1CC2)c1ccccc1` (centres undefined), inactive: -0.876%. For the compound `COc1cccc(C(=O)N(c2cc(C)cc(C)c2)C2CCN(C(=O)OC(C)(C)C)CC2)c1`, the growth rescue was inactive: 0.63%. The same measure for `COc1cc(OC)cc(C(=O)NCC2(N3CCOCC3)CCCCC2)c1`: inactive: -1.48%. Turning to `CN1CCC(Nc2ccc(Cl)cc2)CC1`, the growth rescue is inactive: -0.947%. Take `COc1cc(OC)cc(C(=O)NCC2(N3CCCCC3)CCCCC2)c1`: the growth rescue was inactive: 0.343%. As for `CC(=O)N(c1ccccc1)C1CCNCC1`, the growth rescue is inactive: -1.92%. For `Cc1ccc(NC2(C#N)CCN(Cc3ccccc3)CC2)cc1`, the growth rescue is inactive: -0.172%. For `Fc1ccccc1NC1CCN(Cc2ccccc2)CC1`, the growth rescue is inactive: -2.07%.

`Cc1ccc(C(=O)NCC2(N3CCCCC3)CCCCC2)o1`: the growth rescue was inactive: 0.138%. The same measure for `CCN1CCC(Nc2cccc(F)c2)CC1`: inactive: 0.426%; for `Cc1ccccc1NC1(C#N)CCN(Cc2ccccc2)CC1`: inactive: 0.289%. `Cn1c(=O)[nH]cc(N(CCCl)CCCl)c1=O`: the growth rescue is inactive: -0.285%. For the compound `CN(C)c1ccc(C(=O)NCC2(N3CCCCC3)CCCCC2)cc1`, the growth rescue was inactive: -0.055%.

Take `O=C(NCC1(N2CCCCC2)CCCCC1)c1ccco1`: the growth rescue is inactive: -0.96%. `CC(C)(C)OC(=O)N1CCC(N(C(=O)c2ccccc2)c2ccc(Cl)cc2)CC1`: the growth rescue is inactive: 0.638%.

In the case of `N#Cc1ccc(C(=O)NCC2(N3CCCCC3)CCCCC2)cc1`, the growth rescue is inactive: -0.513%. Consider `CCCN1CCC(Nc2cc(OC)cc(OC)c2)CC1`, for which the growth rescue is inactive: 0.668%.

For `Cc1cc(N(CCCl)CCCl)ccc1C=O`, the growth rescue is inactive: -1.46%. For the compound `c1ccc(CN2CCC(Nc3ccccc3)CC2)cc1`, the growth rescue was inactive: -0.707%. With `CN(C)C1(CNC(=O)c2cccc(C#N)c2)CCCCC1`, the growth rescue is inactive: -0.846%. Regarding `O=C(NCC1(N2CCOCC2)CCCCC1)c1cc(Br)ccc1Cl`, the growth rescue was inactive: 0.066%.

Turning to `COc1cc(C(=O)NCC2(N3CCOCC3)CCCCC2)cc(OC)c1C`, the growth rescue was inactive: -1.38%. Turning to `COc1ccc(C(=O)NCC2(N3CCOCC3)CCCCC2)cc1OC`, the growth rescue is inactive: 0.516%. For `N/C(=N\O)c1c(N)no[n+]1[O-]` the value was inactive: 0.62%. Take `CCOC(=O)N1CCC(Nc2ccc(C)cc2)CC1`: the growth rescue was inactive: -2.02%. With `O=C(OC1CN2CCC1CC2)C1c2ccccc2C=Cc2ccccc21` (centres undefined), the growth rescue was inactive: 0.0135%. On to `CN(C)c1cccc(C(=O)NCC2(N3CCCCC3)CCCCC2)c1`, for which the growth rescue is inactive: -0.09%. Consider `COc1ccc(CN(CCCl)CCCl)cc1Cl`, for which the growth rescue was inactive: -0.677%. Consider `CC(C)c1ccc(NC2CCN(C(=O)OC(C)(C)C)CC2)cc1`, for which the growth rescue is inactive: 0.49%. For `O=C(NCC1(N2CCOCC2)CCCCC1)c1cc(F)c(F)cc1Cl`, the growth rescue was inactive: -1.43%. Regarding `COc1cc(OC)c(C(=O)NCC2(N(C)C)CCCCC2)cc1OC`, the growth rescue is inactive: -1.21%.

Take `O=C(NCC1(N2CCCCC2)CCCCC1)c1cncc(Br)c1`: the growth rescue was inactive: -0.185%. In the case of `CN1CCC(Nc2cccc(F)c2)CC1`, the growth rescue was inactive: 0.232%. Consider `CCCOc1ccc(C(=O)NCC2(N(C)C)CCCCC2)cc1OC`, for which the growth rescue was inactive: -0.733%. Consider `O=C(NCC1(N2CCCCC2)CCCCC1)c1ccc(OC(F)F)cc1`, for which the growth rescue was inactive: -0.789%. The same measure for `CSc1ccc(C(=O)NCC2(N3CCOCC3)CCCCC2)cc1`: inactive: -0.0255%; for `O=C(NCC1(N2CCCCC2)CCCCC1)c1cccc([N+](=O)[O-])c1`: inactive: -0.0435%.

Regarding `N#CC1(Nc2ccccc2)CCN(CCc2ccccc2)CC1`, the growth rescue was inactive: 0.0265%.

For the compound `CCN1CCC(Nc2ccc(Cl)cc2)CC1`, the growth rescue was inactive: -1.28%. As for `O=C(NCC1(N2CCCCC2)CCCCC1)c1cccc(C(F)(F)F)c1`, the growth rescue is inactive: -0.216%. As to `COc1ccc(NC2CCN(C(=O)OC(C)(C)C)CC2)cc1`, the growth rescue is inactive: -0.982%. For the compound `CC(C)c1ccc(C(=O)NCC2(N3CCOCC3)CCCCC2)cc1`, the growth rescue is inactive: -1.16%.

`CN1CCN(CCOC(=O)C(O)(c2ccccc2)c2ccccc2)CC1`: the growth rescue was inactive: -2.12%. For the compound `O=C(NCC1(N2CCOCC2)CCCCC1)c1cc(=O)[nH]c2ccccc12`, the growth rescue is inactive: 0.285%. For `COc1cc(C(=O)NCC2(N3CCCCC3)CCCCC2)ccc1OC(F)F` the value was inactive: 0.84%. Take `CCOc1ccc(C)cc1CN(CCCl)CCCl`: the growth rescue was inactive: -0.623%. In the case of `O=C1CCN(Cc2ccccc2)CC1`, the growth rescue is inactive: 0.279%. In the case of `CCOC(=O)N1CCC(Nc2ccc(F)cc2)CC1`, the growth rescue was inactive: -1.42%. For `COc1ccc(NC2CCN(CCc3ccccc3)CC2)c(OC)c1`, the growth rescue was inactive: 0.917%.

Regarding `O=C(NCC1(N2CCCCC2)CCCCC1)c1ccc(F)cc1`, the growth rescue is inactive: -0.836%. Turning to `CCCCOc1ccc(C(=O)NCC2(N3CCOCC3)CCCCC2)cc1`, the growth rescue is inactive: -2.17%. For `O=P1(N(CCCl)CCCl)SCCCS1`, the growth rescue was inactive: 1.79%. In the case of `COc1cc(C(=O)NCC2(N(C)C)CCCCC2)ccc1OC(F)F`, the growth rescue was inactive: -0.737%. As to `CCOC(=O)N1CCC(Nc2cccc(C)c2)CC1`, the growth rescue is inactive: -0.419%. Regarding `O=C(NCC1(N2CCCCC2)CCCCC1)c1cccs1`, the growth rescue is inactive: -0.031%. For the compound `O=C(NCC1(N2CCCCC2)CCCCC1)c1ccc(=O)[nH]c1`, the growth rescue is inactive: 0.311%. For the compound `COc1ccc(C(=O)NCC2(N3CCCCC3)CCCCC2)c(OC)c1OC`, the growth rescue is inactive: -1.48%. With `CC(C)(C)OC(=O)N1CCC(N(C(=O)c2ccccc2)c2ccc(F)cc2)CC1`, the growth rescue was inactive: -0.339%. In the case of `COc1ccc(C(=O)NCC2(N3CCCCC3)CCCCC2)cc1`, the growth rescue is inactive: -0.571%. For `Cc1cccc(NC2(C#N)CCN(Cc3ccccc3)CC2)c1` the value was inactive: -1.17%; for `CSc1ccccc1C(=O)NCC1(N2CCCCC2)CCCCC1`, inactive: -0.142%. In the case of `O=C(NCC1(N2CCOCC2)CCCCC1)c1cc2ccccc2o1`, the growth rescue was inactive: -0.571%. For `Cc1cc(C)cc(N(C(=O)c2ccccc2)C2CCN(C(=O)OC(C)(C)C)CC2)c1` the value was inactive: 2.27%; for `O=C(NCC1(N2CCCCC2)CCCCC1)c1ccc(Cl)nc1`, inactive: -0.255%. Regarding `CCOC(=O)N1CCC(Nc2ccc(OC)cc2)CC1`, the growth rescue is inactive: -0.554%. Turning to `COc1ccc(Cl)cc1C(=O)NCC1(N2CCOCC2)CCCCC1`, the growth rescue is inactive: -0.147%. For `O=C(OC1CN2CCC1CC2)C1c2ccccc2Oc2ccccc21` (centres undefined) the value was inactive: -1.42%; for `N#CC1(Nc2ccccc2)CCN(Cc2ccccc2)CC1`, inactive: 1.68%; for `O=C(NCC1(N2CCCCC2)CCCCC1)c1ccc(Cl)s1`, inactive: -0.513%.
